Results deposited as PubChem BioAssay AID504761 (Drosophila RNAi Screening Center, 2011)
Purpose: 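Genome-wide fly cell screen for genes dengue virus requires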 (primary screen). Cell system: D.Mel-2 cells from Drosophila. Knock-down reagent: long dsRNA against Drosophila genes. Treatment: infection with dengue virus type 2; dose and infection time not stated. Read-out: 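Cells stained for dengue envelope protein and imaged; percent of infected cells per well on duplicate plates, ranked by infection, with stained nuclei counted for cell number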. Reading the numbers: infection score: higher = more virus-infected cells; cell count: higher = more cells in the well. Hit rule: 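Very low infection ranking in both replicate wells (chance probability at most 0.065), then a retest showing infection dropped 1.5-fold or more at p below 0.05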. Meaning of the calls: active = confirmed: knock-down lowers infection; inactive = not picked or not confirmed.
In all, the deposit lists about 22,000 reagents; shown is a random part of those with a known target gene and a result. Over the whole deposit, 116 (0.52%) were called active. 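Calls depend on retest data that are not deposited; infection was ranked per plate without normalising between plates; the unit of the infection score is not given.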 The raw values are shown without normalisation. A number with no mark means an inactive call. Reagents against one gene are numbered here. The record does not give: the amount of reagent, the time to read-out.

| gene | reagent no. | infection score, replicate 1 | infection score, replicate 2 | cell count, replicate 1 | cell count, replicate 2 |
| --- | --- | --- | --- | --- | --- |
| CG13623 | 1 | 1.6 | 11 | 563 | 918 |
| jhamt | 1 | 16.4 | 12.4 | 1546 | 6580 |
| Ucp4B | 1 | 0.39 | 11.7 | 1023 | 6173 |
| CG18371 | 1 | 14 | 8.53 | 5960 | 7019 |
| CG9377 | 1 | 14.4 | 12.4 | 6434 | 6196 |
| CG30487 | 1 | 0.82 | 2.34 | 6194 | 5717 |
| CG10376 | 1 | 22 | 25.6 | 6031 | 6212 |
| CG10376 | 2 | 16.6 | 12.9 | 6009 | 6203 |
| Pbp95 | 1 | 11.1 | 1.77 | 6551 | 6571 |
| Pbp95 | 2 | 42 | 25.4 | 5604 | 5116 |
| Srg1 | 1 | – | – | 399 | 325 |
| Srg1 | 2 | 16.7 | 14.2 | 2626 | 5756 |
| CG7378 | 1 | 1.5 | 0.94 | 6261 | 5551 |
| CG32369 | 1 | 3.74 | 7.97 | 5349 | 5645 |
| CG32369 | 2 | 8.22 | 3.47 | 6542 | 6311 |
| CG32369 | 3 | 4.25 | 1.57 | 6097 | 5782 |
| CG31647 (retired record) | 1 | 16.3 | – | 5227 | 451 |
| CG31647 (retired record) | 2 | 1.76 | 3.93 | 6032 | 5924 |
| CG12541 | 1 | 2.01 | 1.3 | 6257 | 7096 |
| CG12541 | 2 | 9.31 | 30.8 | 1944 | 5739 |
| Skp2 | 1 | 9.56 | 9.45 | 5827 | 5701 |
| Skp2 | 2 | 30.2 | 25.7 | 6059 | 4713 |
| Esp | 1 | – | – | 358 | 353 |
| COX4L | 1 | 9.15 | 7.08 | 5768 | 6620 |
| Jhbp7 | 1 | 2.47 | 4.54 | 6430 | 6649 |
| Jhbp7 | 2 | 1.93 | 5.8 | 6430 | 6656 |
| OstDelta | 1 | 13.9 | 13.3 | 5042 | 5021 |
| OstDelta | 2 | 5.91 | 6.55 | 5616 | 5072 |
| Sod1 | 1 | 3.24 | 4.05 | 5839 | 5727 |
| EAChm | 1 | 0.92 | 0.71 | 6212 | 6235 |
| Sirt2 | 1 | 10.8 | 3.31 | 4764 | 6766 |
| Sirt2 | 2 | 9.52 | 12 | 6804 | 6179 |
| Lim3 | 1 | 4.89 | 3.91 | 6120 | 6804 |
| Lim3 | 2 | 6.94 | 5.59 | 2377 | 1269 |
| ds | 1 | 2.41 | 1.87 | 6225 | 6137 |
| CG11286 | 1 | 7.18 | 8.02 | 6542 | 6446 |
| Dera | 1 | 6.72 | 13.2 | 5829 | 6082 |
| Dera | 2 | 2.93 | 16.2 | 6522 | 6284 |
| Dera | 3 | 4.99 | 4.66 | 6478 | 6848 |
| Taf9 | 1 | 15.5 | 6.55 | 6078 | 6215 |
| Taf9 | 2 | 12.8 | 6.05 | 5365 | 6064 |
| CG15721 | 1 | 9.37 | 11.3 | 5793 | 5717 |
| RpL34b | 1 | 9.25 | 30.4 | 7026 | 4513 |
| CG14126 (retired record) | 1 | 1.72 | 1.44 | 6518 | 6596 |
| CG14126 (retired record) | 2 | 3.22 | 0.27 | 869 | 371 |
| Ilp1 | 1 | 0.26 | 2.73 | 6500 | 6008 |
| CG13545 | 1 | 19.8 | 9.68 | 5838 | 4120 |
| CG13545 | 2 | 19 | 23.1 | 5767 | 5635 |
| Or74a | 1 | 1.87 | 0.82 | 6301 | 6445 |
| CG5290 | 1 | 14 | 5.81 | 3346 | 6282 |
| CG5290 | 2 | 19.4 | 9.42 | 6235 | 6529 |
| CG14613 | 1 | 1 | 9.04 | 6297 | 7037 |
| CG14613 | 2 | 24.8 | 13.4 | 4558 | 6733 |
| Tep1 | 1 | 14.9 | 2.69 | 5673 | 6761 |
| Tep1 | 2 | 19.1 | 5.29 | 5918 | 6257 |
| CG34232 | 1 | 0.52 | 16.8 | 6325 | 5790 |
| boly | 1 | 0.66 | 10.1 | 5799 | 5485 |
| Fpps | 1 | 26.6 | 18.6 | 5734 | 6234 |

In a second layout: results already given.
CG32369 #3 — infection score, replicate 1: 4.25; infection score, replicate 2: 1.57; cell count, replicate 1: 6097; cell count, replicate 2: 5782
CG31647 (retired record) #1 — infection score, replicate 1: 16.3; cell count, replicate 1: 5227; cell count, replicate 2: 451
CG31647 (retired record) #2 — infection score, replicate 1: 1.76; infection score, replicate 2: 3.93; cell count, replicate 1: 6032; cell count, replicate 2: 5924
CG12541 #1 — infection score, replicate 1: 2.01; infection score, replicate 2: 1.3; cell count, replicate 1: 6257; cell count, replicate 2: 7096
